This experiment addresses Hir complex (Hir1/Hir2/Hir3/Hpc2) (S. cerevisiae). Kind of experiment: SPR. (In general: In SPR one partner is held on a chip, and binding of the other changes the refractive index at the surface.)

These results are taken from article PMC11338637 (Molecular cell, 2024).

B1: full-length yeast Asf1 (natural protein)
chain: not shown
As a reminder, the Kd is the concentration at which binding is half-saturated. Higher therefore signals a looser complex. In turn, B1 had an equilibrium dissociation constant (Kd) of 132 nM.
